Test system: RAW 264.7 cells
Assay: Cellular antioxidant activity (CAA)
Type: cell-based, Murine
Conditions: CAA in macrophages; vs quercetin or luteolin
Method: To evaluate the antioxidant activity of the prepared derivatives and the respective parent compounds, cellular antioxidant activity (CAA) was measured in macrophages. Compared to other in vitro antioxidant assays, this method provides partial information about the uptake and metabolism of the compounds, because, in this assay, they must first enter the cell to exert antioxidant activity.[31] […] Derivatization of quercetin at C-8 with 4-fluoroaniline (5) increased the antioxidant activity of quercetin by 1.7-fold. […] The concentration of these derivatives required to halve the cellular radicals decreased 1.5-fold compared to luteolin.
Cellular antioxidant capacity was evaluated as previously described.[31],[39] Briefly, 100 μL of RAW 264.7 cells with a density corresponding to 1 × 10^6 cells/mL were split into 96-well plates. After 24 h, cells were washed with PBS, and DMEM supplemented with DCFH-DA (0.0125 mg/mL) was added to each well together with the tested samples in the concentration range of 1.5–200 μM. After 1 h incubation in a CO2 incubator, the medium was replaced with AAPH solution (0.16 mg/mL in PBS), and fluorescence was immediately recorded (ex./em. 485/540 nm) for 2 h in 5 min intervals.

Structure (SMILES)	improvement of antioxidant activity (decrease of the concentration halving cellular radicals) compared to the parent compound [fold]
O=c1cc(-c2ccc(O)c(O)c2)oc2c(Nc3ccccc3)c(O)cc(O)c12 [compound 13, 2-(3,4-Dihydroxyphenyl)-8-(anilino)-5,7-dihydroxy-4H–1-benzopyran-4-one]	1.5
O=c1cc(-c2ccc(O)c(O)c2)oc2c(Nc3ccc(F)cc3)c(O)cc(O)c12 [compound 11, 2-(3,4-Dihydroxyphenyl)-8-(4-fluoroanilino)-5,7-dihydroxy-4H–1-benzopyran-4-one]	1.5
O=c1c(O)c(-c2ccc(O)c(O)c2)oc2c(Nc3ccc(F)cc3)c(O)cc(O)c12 [compound 5, 2-(3,4-Dihydroxyphenyl)-8-(4-fluoroanilino)-3,5,7-trihydroxy-4H–1-benzopyran-4-one]	1.7

— PMC11325505, “Nitrogen-Containing Flavonoids—Preparation and Biological Activity” (ACS Omega, 2024)
